Experimental data: PubChem BioAssay AID1259414 (Drosophila RNAi Screening Center, 2018)
The screen tested about 24,000 reagents; this is a random part of those that have a named target and a result. Over the whole deposit, about 1,210 (5%) are marked active. 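Inactive calls also include excluded dsRNAs with several or no targets, genes unexpressed in JW18, and well A1, regardless of score.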

Assay: 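Host factors increasing or decreasing Wolbachia levels in cultured fly cells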 (primary screen)
Cell system: Drosophila JW18 cells infected with Wolbachia
Reagents: long dsRNA against Drosophila genes, 0.25 µg dsRNA per well of a 384-well plate
Time to read-out: 5 days
Treatment: cells persistently infected with Wolbachia before knock-down; no added drug
Measured: 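Automated imaging of bacterial rRNA staining divided by host cell count, reported as plate-normalised robust z-score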
Direction: Wolbachia per cell robust z: higher = more Wolbachia per host cell than the plate typical
Active means: 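Active if absolute robust z reaches 1.5 in two or more of three replicates, leaving out multi- or no-target dsRNAs, genes unexpressed in JW18 and A1 wells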

The opening 2 entries, to show the layout:
Hsc70-4 [DRSC16711] → Wolbachia per cell robust z, rep 1: 2.4; Wolbachia per cell robust z, rep 2: 3.16; Wolbachia per cell robust z, rep 3: 2.77; call: active
Hsc70-4 [DRSC29729] → Wolbachia per cell robust z, rep 1: 3.2; Wolbachia per cell robust z, rep 2: 2.02; Wolbachia per cell robust z, rep 3: 3.2; call: active

The listing, repeating the preview:
Hsc70-4 [DRSC16711] → Wolbachia per cell robust z, rep 1: 2.4; Wolbachia per cell robust z, rep 2: 3.16; Wolbachia per cell robust z, rep 3: 2.77; call: active
Hsc70-4 [DRSC29729] → Wolbachia per cell robust z, rep 1: 3.2; Wolbachia per cell robust z, rep 2: 2.02; Wolbachia per cell robust z, rep 3: 3.2; call: active
CG11147 [DRSC02129] → Wolbachia per cell robust z, rep 1: 0.4; Wolbachia per cell robust z, rep 2: 0.642; Wolbachia per cell robust z, rep 3: -1.1; call: inactive
BaraB [DRSC06420] → Wolbachia per cell robust z, rep 1: -0.994; Wolbachia per cell robust z, rep 2: -2.07; Wolbachia per cell robust z, rep 3: -1; call: inactive
CG12643 [DRSC17849] → Wolbachia per cell robust z, rep 1: 0.238; Wolbachia per cell robust z, rep 2: -0.397; Wolbachia per cell robust z, rep 3: 0.577; call: inactive
CG12643 [DRSC24898] → Wolbachia per cell robust z, rep 1: -0.482; Wolbachia per cell robust z, rep 2: -0.463; Wolbachia per cell robust z, rep 3: -0.203; call: inactive
Ir94d [DRSC21568] → Wolbachia per cell robust z, rep 1: -0.418; Wolbachia per cell robust z, rep 2: 0.617; Wolbachia per cell robust z, rep 3: 0.808; call: inactive
CG31204 [DRSC15106] → Wolbachia per cell robust z, rep 1: -3.84; Wolbachia per cell robust z, rep 2: -2.94; Wolbachia per cell robust z, rep 3: 1.33; call: inactive
CG31204 [DRSC28757] → Wolbachia per cell robust z, rep 1: 0.267; Wolbachia per cell robust z, rep 2: 0.476; Wolbachia per cell robust z, rep 3: -0.756; call: inactive
Prp4k [DRSC08144] → Wolbachia per cell robust z, rep 1: 0.0696; Wolbachia per cell robust z, rep 2: 1.03; Wolbachia per cell robust z, rep 3: -0.18; call: inactive
Prp4k [DRSC27510] → Wolbachia per cell robust z, rep 1: 0.409; Wolbachia per cell robust z, rep 2: -1.32; Wolbachia per cell robust z, rep 3: 0.471; call: inactive
CG14615 [DRSC20627] → Wolbachia per cell robust z, rep 1: 1.18; Wolbachia per cell robust z, rep 2: -0.0871; Wolbachia per cell robust z, rep 3: 0.553; call: inactive
CG7882 [DRSC04899] → Wolbachia per cell robust z, rep 1: -0.539; Wolbachia per cell robust z, rep 2: -1.31; Wolbachia per cell robust z, rep 3: -0.326; call: inactive
alpha-Est8 [DRSC12620] → Wolbachia per cell robust z, rep 1: -1.51; Wolbachia per cell robust z, rep 2: 0.0763; Wolbachia per cell robust z, rep 3: 0.268; call: inactive
CG7881 [DRSC04898] → Wolbachia per cell robust z, rep 1: 0.439; Wolbachia per cell robust z, rep 2: -1.2; Wolbachia per cell robust z, rep 3: -0.723; call: inactive
Fpps [DRSC07429] → Wolbachia per cell robust z, rep 1: 0.266; Wolbachia per cell robust z, rep 2: 1.67; Wolbachia per cell robust z, rep 3: -0.978; call: inactive
His3.3B [DRSC17773] → Wolbachia per cell robust z, rep 1: -0.422; Wolbachia per cell robust z, rep 2: -0.758; Wolbachia per cell robust z, rep 3: -1.11; call: inactive
His3.3B [DRSC18673] → Wolbachia per cell robust z, rep 1: 0.924; Wolbachia per cell robust z, rep 2: 1.34; Wolbachia per cell robust z, rep 3: -0.164; call: inactive
His3.3B [DRSC28380] → Wolbachia per cell robust z, rep 1: 0.339; Wolbachia per cell robust z, rep 2: -0.137; Wolbachia per cell robust z, rep 3: -0.0577; call: inactive
His3.3B [DRSC28708] → Wolbachia per cell robust z, rep 1: -1.41; Wolbachia per cell robust z, rep 2: -0.839; Wolbachia per cell robust z, rep 3: -0.928; call: inactive
eIF4B [DRSC37929] → Wolbachia per cell robust z, rep 1: 0.18; Wolbachia per cell robust z, rep 2: 0.515; Wolbachia per cell robust z, rep 3: -1.53; call: inactive
CG14695 [DRSC14918] → Wolbachia per cell robust z, rep 1: -0.0131; Wolbachia per cell robust z, rep 2: -0.396; Wolbachia per cell robust z, rep 3: -0.102; call: inactive
schuy [DRSC10284] → Wolbachia per cell robust z, rep 1: 0.672; Wolbachia per cell robust z, rep 2: 1.62; Wolbachia per cell robust z, rep 3: -0.243; call: inactive
schuy [DRSC28184] → Wolbachia per cell robust z, rep 1: 1.04; Wolbachia per cell robust z, rep 2: -0.0389; Wolbachia per cell robust z, rep 3: -0.989; call: inactive
CG34106 [DRSC38910] → Wolbachia per cell robust z, rep 1: -1.59; Wolbachia per cell robust z, rep 2: -6.7; Wolbachia per cell robust z, rep 3: 0.798; call: inactive
Scgbeta [DRSC15854] → Wolbachia per cell robust z, rep 1: -0.443; Wolbachia per cell robust z, rep 2: -2.12; Wolbachia per cell robust z, rep 3: -0.439; call: inactive
CG6171 [DRSC15982] → Wolbachia per cell robust z, rep 1: 0.341; Wolbachia per cell robust z, rep 2: -1.08; Wolbachia per cell robust z, rep 3: -0.303; call: inactive
SPARC [DRSC14123] → Wolbachia per cell robust z, rep 1: 0.288; Wolbachia per cell robust z, rep 2: 0.326; Wolbachia per cell robust z, rep 3: 0.5; call: inactive
SPARC [DRSC26381] → Wolbachia per cell robust z, rep 1: -0.683; Wolbachia per cell robust z, rep 2: 0.0651; Wolbachia per cell robust z, rep 3: 0.244; call: inactive
SPARC [DRSC38983] → Wolbachia per cell robust z, rep 1: -0.236; Wolbachia per cell robust z, rep 2: -2.12; Wolbachia per cell robust z, rep 3: 0.0981; call: inactive
